{"source": "ChEMBL document CHEMBL1255439", "about": "(2010)", "test_system": "Burkholderia pseudomallei", "experiment": "Antibacterial activity against Burkholderia pseudomallei 1026b infected in BALB/c mouse assessed as cure rate at 25 mg/kg, ip administered 6 hrs postinfection at 12 hrs interval for 3 days measured on day 3 in presence of IFN-gamma-harboring cationic liposome-DNA complex", "settings": "route intraperitoneal"}
{"smiles": "CC(C)(O/N=C(\\C(=O)N[C@@H]1C(=O)N2C(C(=O)[O-])=C(C[n+]3ccccc3)CS[C@H]12)c1csc(N)n1)C(=O)O", "values": [{"measurement": "Activity", "value": 40, "unit": "%"}]}
